PubChem BioAssay AID624099 | ICCB-Longwood, 2012
The deposit covers about 21,000 reagents; this is a part drawn at random. In the full data, 497 (2.4%) were called active. 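Higher z means weaker E2 silencing; only reporter increases were scored, and knock-downs that hurt cell survival may mask genuine repressor factors.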 Reagents against one gene are numbered here.

- Screen: 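Knock-downs relieving repression by E2 of an HPV18 LCR luciferase reporter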 (primary screen)
- System: human C33A cervical carcinoma cells (HPV-negative) stably expressing BPV1 E2 and an HPV18 LCR luciferase reporter
- Reagent: siRNA pool against human genes, 40 nM
- Timing: 72 h
- Measured: 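HPV18 LCR reporter light per well, converted to plate-wise z-scores that exclude control wells, and averaged over triplicate plates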
- Reading the numbers: mean z-score and z-score: higher = stronger reporter signal, weaker E2 silencing
- Active means: 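Mean z ≥ 2 together with z ≥ 2 in two or more of the three replicates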

no.	gene knocked down	pool no.	mean z-score	z-score, replicate A	z-score, replicate B	z-score, replicate C	Call
1	LOC400792 (retired record)	1	-2.91	-2.57	-2.98	-3.19	inactive
2	POLR1HASP (POLR1H antisense, pseudogene)	1	-1.11	-1.36	-0.79	-1.19	inactive
3	PRR15 (proline rich 15)	1	0.83	1.08	0.78	0.62	inactive
4	ZNF815P (zinc finger protein 815, pseudogene)	1	0.4	0.25	0.67	0.27	inactive
5	ZNF815P (zinc finger protein 815, pseudogene)	2	-0.05	0.1	-0.05	-0.22	inactive
6	ZNF815P (zinc finger protein 815, pseudogene)	3	-0.18	-0.3	-0.18	-0.08	inactive
7	SMPD1 (sphingomyelin phosphodiesterase 1)	1	-1.4	-1.68	-1.85	-0.67	inactive
8	PIGN (phosphatidylinositol glycan anchor biosynthesis class N)	1	3.62	3.85	3.4	3.6	active
9	METTL27 (methyltransferase like 27)	1	0.16	0.06	0.43	0	inactive
10	KLF2 (KLF transcription factor 2)	1	-0.3	-0.44	-0.27	-0.18	inactive
11	CCNY (cyclin Y)	1	-0.24	-0.22	-0.08	-0.42	inactive
12	RPL7AP27 (ribosomal protein L7a pseudogene 27)	1	-1.26	-1.21	-1.44	-1.13	inactive
13	CD300LB (CD300 molecule like family member b)	1	-0.2	-0.1	-0.18	-0.31	inactive
14	KANSL2 (KAT8 regulatory NSL complex subunit 2)	1	0.85	0.55	0.48	1.5	inactive
15	LINC02873 (long independently transcribed non-coding RNA 2873)	1	0.01	0.17	-0.56	0.41	inactive
16	MRPL20 (mitochondrial ribosomal protein L20)	1	0.22	0.04	0.2	0.42	inactive
17	LOC400756 (retired record)	1	-0.17	-0.1	-0.11	-0.29	inactive
18	C2CD4C (C2 calcium dependent domain containing 4C)	1	-1.97	-1.83	-2.15	-1.94	inactive
19	BCL7A (BAF chromatin remodeling complex subunit BCL7A)	1	-0.94	-1.12	-0.93	-0.79	inactive
20	BOLA3 (bolA family member 3)	1	-0.28	-0.11	-0.41	-0.32	inactive
21	SLC19A3	1	0.09	0.05	0	0.22	inactive
22	DKK3 (dickkopf Wnt signaling pathway inhibitor 3)	1	0.01	0.14	0.22	-0.34	inactive

Already shown: entries from further up.
no.	gene knocked down	pool no.	mean z-score	z-score, replicate A	z-score, replicate B	z-score, replicate C	Call
12	RPL7AP27 (ribosomal protein L7a pseudogene 27)	1	-1.26	-1.21	-1.44	-1.13	inactive
13	CD300LB (CD300 molecule like family member b)	1	-0.2	-0.1	-0.18	-0.31	inactive

The listing continues.
no.	gene knocked down	pool no.	mean z-score	z-score, replicate A	z-score, replicate B	z-score, replicate C	Call
23	PEA15 (proliferation and apoptosis adaptor protein 15)	1	1.24	1.26	1.24	1.23	inactive
24	LOC400651 (retired record)	1	-0.4	-0.26	-0.47	-0.47	inactive
25	ERAP1 (endoplasmic reticulum aminopeptidase 1)	1	-0.26	-0.2	-0.12	-0.46	inactive
26	PAGR1 (PAXIP1 associated glutamate rich protein 1)	1	0.97	0.7	1.55	0.66	inactive
27	LINC02860 (long independently transcribed non-coding RNA 2860)	1	1.08	0.96	1.23	1.05	inactive
28	TBX15 (T-box transcription factor 15)	1	-0.29	-0.2	-0.3	-0.36	inactive
29	EPB41L4A-AS1 (EPB41L4A antisense RNA 1)	1	0.05	-0.16	0.23	0.08	inactive
30	NMB (neuromedin B)	1	0.05	-0.42	0.34	0.24	inactive
31	FKBP15 (FKBP prolyl isomerase family member 15)	1	0.11	0.12	0.02	0.17	inactive
32	TCEAL3 (transcription elongation factor A like 3)	1	-0.51	-0.52	-0.76	-0.26	inactive
33	DCAF12L2 (DDB1 and CUL4 associated factor 12 like 2)	1	0.03	0.11	-0.05	0.03	inactive
34	PADI2 (peptidyl arginine deiminase 2)	1	-1.55	-1.42	-1.65	-1.57	inactive
35	TTC9 (tetratricopeptide repeat domain 9)	1	-0.5	-0.38	-0.77	-0.34	inactive
36	PSMC6 (proteasome 26S subunit, ATPase 6)	1	-0.53	-0.49	-0.47	-0.62	inactive
37	CD5L (CD5 molecule like)	1	-0.59	-0.67	-0.62	-0.49	inactive
38	SLC4A3	1	-0.36	-0.26	-0.56	-0.25	inactive
39	GALNT13 (polypeptide N-acetylgalactosaminyltransferase 13)	1	-0.36	-0.64	-0.14	-0.3	inactive
